Test results as given in article PMC8976035, “Pharmacodynamic, pharmacokinetic, and phase 1a study of bisthianostat, a novel histone deacetylase inhibitor, for the treatment of relapsed or refractory multiple myeloma” (Acta Pharmacologica Sinica, 2021).

Settings: human, in vivo

With `O=C(CCCCNC(=O)c1nc(-c2nccs2)sc1C1CC1)NO` [BIS] the “grade 2 nausea and vomiting” value was “one patient”.
